Experimental data published in paper PMC9734383 (2022).

Tests used:
[1] = biological target: T1, H13 HA (recombinant HA of the panel) (influenza A virus (strain  in …)); assay: BLI
T1 chain: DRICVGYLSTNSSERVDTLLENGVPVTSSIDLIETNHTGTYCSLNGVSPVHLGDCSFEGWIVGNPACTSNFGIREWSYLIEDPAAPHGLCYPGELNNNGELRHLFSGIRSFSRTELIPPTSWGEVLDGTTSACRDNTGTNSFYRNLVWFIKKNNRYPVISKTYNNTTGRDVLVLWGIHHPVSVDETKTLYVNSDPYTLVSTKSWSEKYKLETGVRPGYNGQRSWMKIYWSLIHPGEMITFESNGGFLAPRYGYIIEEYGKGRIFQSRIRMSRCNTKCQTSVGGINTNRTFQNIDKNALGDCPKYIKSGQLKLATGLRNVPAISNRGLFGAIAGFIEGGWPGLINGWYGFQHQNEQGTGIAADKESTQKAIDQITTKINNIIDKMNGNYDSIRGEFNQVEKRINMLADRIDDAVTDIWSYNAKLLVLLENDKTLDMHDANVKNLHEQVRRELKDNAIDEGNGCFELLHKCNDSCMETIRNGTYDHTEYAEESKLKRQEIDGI

[2] = biological target: H16 HA (recombinant HA of the panel) (influenza A virus (strain  in …)); assay: BLI

B1: PN-SIA28 Fab (Fab, V domains shown)
VH: QVQLVESGGGVVQPGRSLRLSCAASGFPFSSYGMHWVRQAPGKGLEWVAGVSYDGSYKYYADSVKGRFTISRDSSKSTLYLQMNSLRPEDTAVYYCARPSAIFGIYIILNGLDVWGQGTTVTVSS
VL: EIVLTQSPSSVSASVGDRVTITCRATQGISSWLAWYQQKPGKPPKLLIFGASSLQSGVPSRFSGSGSGTDFTLTISSLQPEDFATYFCQQAHSFPLTFGGGTKVEIK
modifications: biotinylated (in the BLI assay)
[1]
  Kd: 2.54 µM
[2]
  Kd: 8.83 µM
